{"source": "PubChem BioAssay AID504761, Drosophila RNAi Screening Center – 2011", "aim": "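Fly genes whose silencing reduces dengue virus type 2 infection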 (primary screen)", "cells": "D.Mel-2 cells from Drosophila", "knock-down reagent": "long dsRNA against Drosophila genes", "treatment": "infection with dengue virus type 2; dose and infection time not stated", "detection": "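Per well on two replicate plates, imaging gave the percent of cells positive for viral envelope protein, ranked by infection, and a nuclear count of cells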", "direction": "infection score: higher = more virus-infected cells", "call rule": "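Very low infection ranking in both replicate wells (chance probability at most 0.065), then a retest showing infection dropped 1.5-fold or more at p below 0.05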", "calls": "active = confirmed: knock-down lowers infection; inactive = not picked or not confirmed", "note": "The screen tested about 22,000 reagents; shown is a random part of those that have a named target and a result. Over the whole deposit, 116 (0.52%) are marked active. 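Calls depend on retest data that are not deposited; infection was ranked per plate without normalising between plates; the unit of the infection score is not given.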 A number with no mark means an inactive call. Further read-outs or replicates are left out here. Not stated in the record: the amount of reagent, the time to read-out."}
{"target gene": "CG12942", "amplicon": "DRSC06253", "infection score, replicate 1": "2.63 (active)"}
{"target gene": "CG12942", "amplicon": "DRSC25987", "infection score, replicate 1": 4.73}
{"target gene": "CG13836 (retired record)", "amplicon": "DRSC14686", "infection score, replicate 1": 1.76}
{"target gene": "CG13836 (retired record)", "amplicon": "DRSC28063", "infection score, replicate 1": 21.7}

Continued; the last 2 above are carried over.
{"target gene": "CG13836 (retired record)", "amplicon": "DRSC14686", "infection score, replicate 1": 1.76}
{"target gene": "CG13836 (retired record)", "amplicon": "DRSC28063", "infection score, replicate 1": 21.7}
{"target gene": "m-cup (mann-cup)", "amplicon": "DRSC14430", "infection score, replicate 1": 9.31}
{"target gene": "CG12360 (retired record)", "amplicon": "DRSC14505", "infection score, replicate 1": 2.42}
{"target gene": "Lcp65Aa", "amplicon": "DRSC11209", "infection score, replicate 1": 3.22}
{"target gene": "Lcp65Aa", "amplicon": "DRSC27546", "infection score, replicate 1": 2.59}
{"target gene": "CG34175", "amplicon": "DRSC00424", "infection score, replicate 1": 4.85}
{"target gene": "Pgant3 (Polypeptide N-Acetylgalactosaminyltransferase 3)", "amplicon": "DRSC05942", "infection score, replicate 1": 21.1}
{"target gene": "Pgant3 (Polypeptide N-Acetylgalactosaminyltransferase 3)", "amplicon": "DRSC29252", "infection score, replicate 1": 10.5}
{"target gene": "CG12236", "amplicon": "DRSC17831", "infection score, replicate 1": 3.3}
{"target gene": "CG12236", "amplicon": "DRSC25773", "infection score, replicate 1": 3.03}
